This is an account of results in patent US20230381142A1, “ANTILEISHMANIAL COMPOUNDS, COMPOSITIONS AND USE THEREOF” (TRUSTEES OF BOSTON UNIVERSITY, priority 2022, published 2023).

In the first data set the test system is L. donovani intracellular amastigotes infecting THP-1 macrophages. The data set is described as follows: GSK intramacrophage L. donovani assay (LD AMMAC, inMac; Assay Conditions C). The format is cell-based, Leishmania donovani. Conditions: (LD MAC EC50)/(LD AMMAC EC50). The procedure, abridged: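 EC50 values come from counting amastigotes per infected THP-1 macrophage (AMMAC). Parallel read-outs give percentage of infected cells per well (INFCELL) and a macrophage-number toxicity EC50 (MAC).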
In the case of `COc1ccc(N2C(=O)c3[nH]nc(CC(C)C)c3C2c2ccc(F)cc2)cc1` (racemic) [Compound 1, 4-(4-fluorophenyl)-3-isobutyl-5-(4-methoxyphenyl)-4,5-dihydropyrrolo[3,4-c]pyrazol-6(1H)-one], the “SI MAC” value came out at 6.3.

The next data set has as its system L. donovani intracellular amastigotes in B10R cells. Description: UCSD L. donovani infection assay (Assay Conditions D). The conditions noted are these: UCSD assay, CC50 versus L. donovani infection EC50. The format is cell-based. The procedure:
(§1) Assay Conditions D: B10R cells (CVCL_0155) were seeded at 300 cells/well, and L. donovani WT promastigotes in stationary phase (7th day after passage) were added at 6,000 parasites/well (ratio of 20 parasites/cell). Both cells and parasites were seeded in DMEM High-Glucose medium (Gibco, cat. no. 11995065) containing 5% Fetal Bovine Serum (Sigma-Aldrich, cat. no. F2442) and 1% Penicillin-Streptomycin (Gibco, cat. no. 15140122). Cells and parasites were incubated in the presence of the compounds for 72 h at 37° C. and 5% C02. Plates were then fixed with 4% formaldehyde solution for at least 1 h, then washed with 1×PBS and stained with 5 μg/mL DAPI. Plates were read using an ImageXpress microscope (Molecular Devices) and analyzed by MetaXpress software (Molecular Devices) using a custom module optimized for this assay. […] Compounds were tested in a 10-point 2-fold serial dilution in 3 technical replicates, and 2 biological replicates. After 72 h, plates were fixed and stained with DAPI as described above. Images were acquired on an ImageXpress microscope, and analyzed using the MetaXpress custom module.
as §1, with “Compounds were obtained as 0.2 μmoles of dried film for primary single point screening. Each compound was diluted in DMSO to 10 μM final testing concentration. These compounds were tested in 2 biological replicates. The compounds were pre-spotted onto 384-well assay plates in single concentration.” for “Assay Conditions D:”, “CO2.” for “C02.”, “module. The DRCs were plotted, half-effective concentration (EC50) and half-cytotoxic concentration (CC50) were calculated using GraphPad Prism Software, version 6.05 (GraphPad Software, San Diego, CA).” for “module.”
`COc1ccc(N2C(=O)c3[nH]nc(CC(C)C)c3C2c2ccccc2OC)cn1` (stereo not drawn) [Compound 85, 3-isobutyl-4-(2-methoxyphenyl)-5-(6-methoxypyridin-3-yl)-4,5-dihydropyrrolo[3,4-c]pyrazol-6(1H)-one]: the SI is given as greater than 76.9.

`CC(C)Cc1n[nH]c2c1C(c1ccccc1Cl)N(c1ccc3c(c1)OCO3)C2=O` (stereo not drawn) [Compound 67, 5-(benzo[d][1,3]dioxol-5-yl)-4-(2-chlorophenyl)-3-isobutyl-4,5-dihydropyrrolo[3,4-c]pyrazol-6(1H)-one] showed an SI of 76.4.

With `CC(C)Cc1n[nH]c2c1C(c1ccccc1Cl)N(c1ccc(N(C)C)cc1)C2=O` (stereo not drawn) [Compound 78, 4-(2-chlorophenyl)-5-(4-(dimethylamino)phenyl)-3-isobutyl-4,5-dihydropyrrolo[3,4-c]pyrazol-6(1H)-one], the SI was found to be 28.2.

Take `CC(C)Cc1n[nH]c2c1C(c1ccccc1Br)N(c1ccc(Br)cc1)C2=O` (stereo not drawn) [Compound 74, 4-(2-bromophenyl)-5-(4-bromophenyl)-3-isobutyl-4,5-dihydropyrrolo[3,4-c]pyrazol-6(1H)-one]: the SI is reported as 12.8.

In turn, `COc1ccc(N2C(=O)c3[nH]nc(CC(C)C)c3C2c2ccc(F)cc2C)cc1F` (stereo not drawn) [Compound 73, 4-(4-fluoro-2-methylphenyl)-5-(3-fluoro-4-methoxyphenyl)-3-isobutyl-4,5-dihydropyrrolo[3,4-c]pyrazol-6(1H)-one] came in with an SI of 68.1.

Regarding `COc1ccc(N2C(=O)c3[nH]nc(CC(C)C)c3C2c2ccc(F)cc2)cc1` (racemic) [Compound 1, 4-(4-fluorophenyl)-3-isobutyl-5-(4-methoxyphenyl)-4,5-dihydropyrrolo[3,4-c]pyrazol-6(1H)-one], the SI is on record as greater than 24.4.

For the molecule `Cc1cc(F)ccc1C1c2c(CC(C)C)n[nH]c2C(=O)N1c1ccc2c(c1)OCO2` (stereo not drawn) [Compound 70, 5-(benzo[d][1,3]dioxol-5-yl)-4-(4-fluoro-2-methylphenyl)-3-isobutyl-4,5-dihydropyrrolo[3,4-c]pyrazol-6(1H)-one], the SI is 120.8.

`Cc1cc(F)ccc1C1c2c(CC(C)C)n[nH]c2C(=O)N1c1ccc(Br)cc1` (stereo not drawn) [Compound 76, 5-(4-bromophenyl)-4-(4-fluoro-2-methylphenyl)-3-isobutyl-4,5-dihydropyrrolo[3,4-c]pyrazol-6(1H)-one] showed an SI of 25.3.

`COc1cc(F)ccc1C1c2c(CC(C)C)n[nH]c2C(=O)N1c1ccc(Br)cc1` (stereo not drawn) [Compound 77, 5-(4-bromophenyl)-4-(4-fluoro-2-methoxyphenyl)-3-isobutyl-4,5-dihydropyrrolo[3,4-c]pyrazol-6(1H)-one]: the SI is 33.7.

The same data set, now with this note: rows whose L. donovani potency is in B10R cells (d).
Turning to `CC(C)Cc1n[nH]c2c1C(c1ccccc1Cl)N(c1ccc(N(C)C)cc1)C2=O` (stereo not drawn) [CMLD010920], the “SI Host cell potency/L. donovani potency” value worked out at 28.2.

As to `Cc1cc(F)ccc1C1c2c(CC(C)C)n[nH]c2C(=O)N1c1ccc(Br)cc1` (stereo not drawn) [CMLD011565], the “SI Host cell potency/L. donovani potency” value is listed as 25.3.

Regarding `COc1cc(F)ccc1C1c2c(CC(C)C)n[nH]c2C(=O)N1c1ccc(Br)cc1` (stereo not drawn) [CMLD011494], the “SI Host cell potency/L. donovani potency” value is recorded as 33.7.

`COc1ccc(N2C(=O)c3[nH]nc(CC(C)C)c3C2c2ccccc2Br)cn1` (stereo not drawn) [CMLD012218]: the “SI Host cell potency/L. donovani potency” value is greater than 54.1.

Consider `COc1ccc(N2C(=O)c3[nH]nc(CC(C)C)c3C2c2ccccc2Br)cc1F` (stereo not drawn) [CMLD012217], for which the “SI Host cell potency/L. donovani potency” value amounted to 7.2.

Take `COc1ccc(N2C(=O)c3[nH]nc(CC(C)C)c3C2c2ccccc2OC)cc1F` (stereo not drawn) [CMLD011566]: the “SI Host cell potency/L. donovani potency” value was 0.7.

In the case of `CC(C)Cc1n[nH]c2c1C(c1ccccc1Cl)N(c1ccc3c(c1)OCO3)C2=O` (stereo not drawn) [CMLD010902], the “SI Host cell potency/L. donovani potency” value is recorded as 76.4.

In the case of `COc1ccccc1C1c2c(CC(C)C)n[nH]c2C(=O)N1c1ccc(Br)cc1` (stereo not drawn) [CMLD011549], the “SI Host cell potency/L. donovani potency” value is 4.8.

For `Cc1cc(F)ccc1C1c2c(CC(C)C)n[nH]c2C(=O)N1c1ccc(N(C)C)cc1` (stereo not drawn) [CMLD011561], the “SI Host cell potency/L. donovani potency” value came out at 68.3.

For the molecule `COc1ccccc1C1c2c(CC(C)C)n[nH]c2C(=O)N1c1ccc2c(c1)OCO2` (stereo not drawn) [CMLD011546], the “SI Host cell potency/L. donovani potency” value is recorded as greater than 74.1.

Consider `CC(C)Cc1n[nH]c2c1C(c1ccccc1Br)N(c1ccc(Br)cc1)C2=O` (stereo not drawn) [CMLD011551], for which the “SI Host cell potency/L. donovani potency” value was 12.8.

Take `COc1ccccc1C1c2c(CC(C)C)n[nH]c2C(=O)N1c1ccc(N(C)C)cc1` (stereo not drawn) [CMLD011552]: the “SI Host cell potency/L. donovani potency” value worked out at 49.3.

On to `CC(C)Cc1n[nH]c2c1C(c1ccccc1Br)N(c1ccc(N(C)C)cc1)C2=O` (stereo not drawn) [CMLD011554], for which the “SI Host cell potency/L. donovani potency” value amounted to 71.5.

Take `COc1ccc(N2C(=O)c3[nH]nc(CC(C)C)c3C2c2ccc(F)cc2OC)cn1` (stereo not drawn) [CMLD011574]: the “SI Host cell potency/L. donovani potency” value is listed as greater than 23.0.

As to `COc1ccc(N2C(=O)c3[nH]nc(CC(C)C)c3C2c2ccccc2Cl)cn1` (stereo not drawn) [BUCMD00686], the “SI Host cell potency/L. donovani potency” value turned out to be 8.9.

Consider `CC(C)Cc1n[nH]c2c1C(c1ccccc1Br)N(c1ccc3c(c1)OCO3)C2=O` (stereo not drawn) [CMLD011548], for which the “SI Host cell potency/L. donovani potency” value was greater than 69.0.

Take `CC(C)Cc1n[nH]c2c1C(c1ccccc1Cl)N(c1ccc3ncnn3c1)C2=O` (stereo not drawn) [CMLD010921]: the “SI Host cell potency/L. donovani potency” value is recorded as greater than 55.6.
